Results of unrelated studies side by side (data: NIAID ChemDB).

Common to all: growth or infection tests; organism: HIV-1; measure: EC50

Lines come from different laboratories, so protocols vary. Blank or dashed fields: not listed here. ECn: concentration that inhibits the pathogen or its effect by n%.

structure	cell line	strain or isolate	setting	mutations	method	value
Cc1cc(C#Cc2ccc(C(=O)O)cc2)cc(C)c1Oc1ccnc(Nc2ccc(C#N)cc2)n1	MT-4	IIIB	-	K103N	MTT	0.138 µM
CC(C)=CCN1Cc2cc(Cl)cc3[nH]c(=S)n(c23)C[C@@H]1C	MT-4	MF	-	-	antigen	~0.1 µM
Cc1occc1C(=S)Nc1ccc(Cl)c(/C=N/OC(C)(C)C)c1	CEM	IIIB	-	RT-L100I	cytopathic effect	0.13 µg/mL
Cn1c2ccccc2c2c1cc(C#N)c(=O)n2-c1ccc([N+](=O)[O-])cc1	HeLa	Recombinant	-	RT-M184V	luciferase	0.176 µM
c1ccc(CNCc2ccc(CN3CCCNCCNCCCNCC3)cc2)nc1	MT-4	HE	-	-	cytopathic effect / MTS	0.0098 µM
Cc1cn([C@H]2C[C@H](N=[N+]=[N-])[C@@H](CO)O2)c(=O)[nH]c1=O	CEM + CEM-SS	IIIB	-	RT-L100I	cytopathic effect / XTT	0.04 µM
C#Cc1ccc(Nc2nccc(Oc3c(C)cc(-c4cn(-c5cccc(C(=O)OC)c5)nn4)cc3C)n2)cc1	MT-4	IIIB	-	F227L and V106A	MTT	≥180 µM
C[C@@H](Cn1cnc2c(N)nc(N)nc21)OCP(=O)(O)O	Macrophage + Monocytes/macrophages	BaL	-	-	p24 / syncytia	1.3 µM
Cc1ccnc2c1NC(=O)c1cccnc1N2C1CC1	MAGI	NNRTI-resistant (RT G190E)	-	RT-G190E	β-galactosidase	0.095 µM
CC[C@@H](C)[C@H](C(=O)O)N1C[C@H](CN2CCC(c3cc(Cc4ccc(C(F)(F)F)cc4)nn3CC)CC2)[C@@H](c2cccc(F)c2)C1	HeLa	BaL	50% human serum	-	β-galactosidase	<0.1 µM
CNCc1ccc2c(c1)[C@@H](CC[C@@H](O)CO)[C@H](CN=C(N)N)[C@H]2NC(=O)C(=O)Nc1ccc(Cl)c(F)c1	Cf2Th-CD4/CCR5	JR-FL	-	-	luciferase / entry	22 µM
C/C=C/CSc1cc(NC(=S)c2ccsc2C)ccc1Cl	CEM + CEM-SS	4XAZT+L100I	-	-	cytopathic effect / XTT	1 µM
CN1N=C(N)c2cn([C@@H]3O[C@H](COP(=O)(O)O)[C@@H](O)[C@H]3O)c3ncnc1c23	CEM + CEM-SS	-	-	-	syncytia / thymidine uptake	0.01 µM
Cc1cn([C@@H]2O[C@H](CO[Si](C)(C)C(C)(C)C)C3(OS(=O)(=O)C=C3N)[C@H]2O[Si](C)(C)C(C)(C)C)c(=O)n(C)c1=O	CEM	IIIB	-	RT-V179D	cytopathic effect	0.097 µg/mL
Cc1ccnc2c1NC(=O)c1cccnc1N2C1CC1	MT-4	RES056	-	-	MTT	>15.02 µM
O=c1[nH]cnc2c1ncn2[C@H]1CC[C@@H](CO)O1	CD4+HELA + HeLa	HXB2	-	RT-L74V	plaque count	12 µM
CCC(=O)c1ccc(F)c([C@@H]2C[C@@H]2NC(=O)Nc2ccc(C#N)cn2)c1O	PBMC	BaL	-	-	absorbance	0.0019 µM
Cc1ccnc2c1NC(=O)c1cccnc1N2C1CC1	HT4 + HT4 LacZ-1	HXB2	-	-	plaque count	0.06 µM
CC(C)CN(C[C@@H](O)[C@H](Cc1cc(F)cc(F)c1)NC(=O)O[C@H]1CCO[C@H]2OCC[C@H]21)S(=O)(=O)c1ccc2nc(NC(C)C)sc2c1	PBMC	Clinical isolate	clinical isolate, multidrug-resistant	L10I I15V K20R L24I M36I M46L I54V I62V L63P K70Q V82A L89M	p24 / luminescence	0.0029 µM
CCCc1cc(=O)oc2c3c(c4c(c12)OC(C)(C)C=C4)O[C@@H](C)[C@H](C)[C@@H]3O	CEM + CEM-SS	UC82-R (RT-Y181C)	-	RT-Y181C	cytopathic effect / XTT	0.1 µM
C#Cc1ccc(Nc2nccc(Oc3c(C)cc(-c4cn(Cc5ccc([N+](=O)[O-])cc5)nn4)cc3C)n2)cc1	MT-4	IIIB	-	Y188L	MTT	≥36.49 µM
C[C@H](Cn1cnc2c(N)ncnc21)OCP(=O)(O)O	MT-2	IIIB	7 d	-	XTT / p24	0.63 µM
Nc1nc(=O)n([C@@H]2CS[C@H](CO)O2)cc1F	HT4 + HT4 LacZ-1	HXB2	-	-	plaque count	0.09 µM
Nc1nc(=O)n([C@@H]2CS[C@H](CO)O2)cc1F	TZM-gfp	NL4-3	-	A114S/M184V/A502V	GFP	>100 µM
C#Cc1ccc(Nc2nccc(Oc3c(C)cc(-c4cn(Cc5cccc(C(=O)OC)c5)nn4)cc3C)n2)cc1	MT-4	IIIB	-	F227L and V106A	MTT	≥2.267 µM
Cc1cc(=O)c2ccc(N=C=S)cc2o1	CEM-GFP	NL4-3	-	-	p24 / ELISA	0.157 µM
CC[C@H](C)[C@H](NC(=O)c1ccccc1SSc1ccccc1C(=O)N[C@H](C(=O)O)[C@@H](C)CC)C(=O)O	H9	IIIB	-	-	p24 / RT activity	1.2 µM
C1CNCCNCCCN(CCCN2CCCNCCNCCCNCC2)CCNC1	MT-4	HE	-	-	cytopathic effect / MTS	0.495 µM
CC(C)=CCN1Cc2cccc3[nH]c(=S)n(c23)C[C@@H]1C	CEM + CEM-SS	IIIB	-	RT-Y181C	cytopathic effect / XTT	4.3 µM
Cc1cn([C@H]2C[C@H](N=[N+]=[N-])[C@@H](CO)O2)c(=O)[nH]c1=O	HT4 + HT4-6C	P022A (RT-WT)	-	-	plaque count	0.01 µM
Cc1cc(C#Cc2ccc(C(F)(F)F)cc2)cc(C)c1Oc1ccnc(Nc2ccc(C#N)cc2)n1	MT-4	IIIB	-	RES056	MTT	>7.353 µM
CC(C)(C)NC(=O)[C@@H]1C[C@@H]2CCCC[C@@H]2CN1C[C@@H](O)[C@H](Cc1ccccc1)NC(=O)[C@H](CC(N)=O)NC(=O)c1ccc2ccccc2n1	-	BMS-186318-resistant (PR A71T V82A)	-	PR-A71T V82A	-	0.013 µM
N#Cc1cc2[nH]c3ccccc3c2n(-c2ccc([N+](=O)[O-])cc2)c1=O	HeLa	NNRTI-resistant	-	RT-K103N P225H	luciferase	0.047 µM
Cc1cccc(C)c1Oc1ccnc(Nc2ccc(C#N)cc2)n1	MT-4	IIIB	-	E138K	MTT	0.046 µM
C#Cc1ccc(Nc2nccc(Oc3c(C)cc(-c4cn(Cc5ccccc5[N+](=O)[O-])nn4)cc3C)n2)cc1	MT-4	IIIB	-	F227L and V106A	MTT	>7.22 µM
CC[C@@H](C)[C@H](C(=O)O)N1C[C@H](CN2CCC(c3cc(Cc4ccc(Oc5ccccc5)cc4)nn3CC)CC2)[C@@H](c2cccc(F)c2)C1	HeLa	BaL	50% human serum	-	β-galactosidase	<0.3 µM
CC(C)CN(C[C@@H](O)[C@H](Cc1ccc(F)cc1)NC(=O)O[C@H]1CCO[C@H]2OCC[C@H]21)S(=O)(=O)c1ccc2nc(NC(C)C)sc2c1	PBMC	97ZA003	-	-	p24 / luminescence	0.0021 µM
CC(C)CN(C[C@@H](O)[C@H](Cc1ccccc1)NC(=O)O[C@H]1CCOC1)S(=O)(=O)c1ccc(N)cc1	HEK 293 + 293 Cells	NL4-3 WT	-	-	luciferase / recombinant virus assay	0.02 µM
Cc1[nH]c(=O)c(F)cc1Cn1cnc(C(F)(F)C(F)F)c(Oc2cc(C(F)F)cc(C#N)c2C)c1=O	-	-	-	Y181C	RT activity / fluorescence	3.51 µM
Cc1cc(C#Cc2cccc(N)c2)cc(C)c1Oc1ccnc(NC2CCN(Cc3ccc(C(N)=O)cc3)CC2)n1	MT-4	IIIB	-	-	MTT	0.006 µM
Cc1cn([C@H]2C=C[C@@H](CO)O2)c(=O)[nH]c1=O	CD4+HELA + HeLa	RTMC	-	-	plaque count	1.7 ± 0.28 µM
CCc1c(C(=O)c2cc(C)cc(C)c2)n(CC2CC=CC2)c(=O)[nH]c1=O	CEM + CEM-SS	NL4-3	-	RT-K103N	cytopathic effect / XTT	>0.14 µM
COC(=O)N[C@H](C(=O)N[C@@H](Cc1ccccc1)[C@@H](O)CN(Cc1ccc(-c2ccccn2)cc1)NC(=O)[C@@H](NC(=O)OC)C(C)(C)C)C(C)(C)C	MT-2	IIIB	-	8374-P62 GS-8374-resistant	ATP	0.0163 µM
CC(C)=CCOc1cc(NC(=S)c2ccoc2C)ccc1Cl	CEM	IIIB	-	RT-K103N	cytopathic effect	0.023 µg/mL
O=C1N(Cc2ccc(CO)cc2)[C@H](Cc2ccccc2)[C@H](O)[C@@H](O)[C@@H](Cc2ccccc2)N1Cc1ccc(CO)cc1	PBMC	IIIB	-	-	virus yield	<0.14 µM
Cc1ccnc2c1NC(=O)c1cccnc1N2C1CC1	CEMx174 + CEM	IIIB	-	-	cytopathic effect / XTT	0.1 µM
CO[P@](=O)(c1cc(C)cc(/C=C/C#N)c1)c1c(C(N)=O)[nH]c2ccc(Cl)cc12	PBMC	WT (NL4-3)	-	-	-	0.0015 µM
CCc1c(Sc2ccccn2)n(COCc2ccccc2)c(=O)[nH]c1=O	CEM + CEM-SS	IIIB	-	RT-Y181C	cytopathic effect / XTT	2.2 µM
Cc1ccnc2c1NC(=O)c1cccnc1N2C1CC1	HT4 + HT4 LacZ-1	RTMN (RT-M41L T215Y)	-	RT-M41L T215Y	plaque count	0.1 µM
Cc1ccnc2c1NC(=O)c1cccnc1N2C1CC1	C8166	Clinical isolate	-	WAN	ELISA	0.1 µM
Cc1c(O)cccc1C(=O)N[C@@H](CSc1ccccc1)[C@H](O)CN1C[C@H]2CCCC[C@H]2C[C@H]1C(=O)NC(C)(C)C	HEK 293 + 293 Cells	NL4-3 WT	-	-	luciferase / recombinant virus assay	0.007 µM
Cc1occc1C(=S)Nc1ccc(Cl)c(/C=N/OC(C)(C)C)c1	CEM + CEM-SS	NL4-3 (RT K103N)	-	RT-K103N	cytopathic effect / XTT	4.8 µM
Nc1ncnc2c1ncn2CCOCP(=O)(O)O	PBL	IIIB	-	-	p24 / syncytia	2.5 µM
CC(=O)c1ccc(C)cc1NC(C(N)=O)c1c(Cl)cccc1Cl	MAGI	IIIB	-	RT-V108I	MTT	1.4 µM
CC(=O)N1CCC(C(=O)N(CCCN2CCC(Cc3ccc(C(N)=O)cc3)CC2)c2ccc(C)c(Cl)c2)CC1	U87 (CD4+ CCR5+) + U87	R5 subtype E_2 recombinant	-	-	luciferase	0.023 µM
Cc1cn([C@H]2C=C[C@@H](CO)O2)c(=O)[nH]c1=O	MT-2	Clinical isolate	-	D67N/T69N/K70R/A98G/M184V/G190S/T215F/K219Q	recombinant virus assay	1.344 µM
CCn1nc(Cc2cccnc2)cc1C1CCN(C[C@H]2CN([C@@H](C(=O)O)C(C)C)C[C@@H]2c2cccc(F)c2)CC1	HeLa	BaL	-	-	β-galactosidase	<0.011 µM
C#Cc1ccc(Nc2nccc(Oc3c(C)cc(-c4cn(Cc5ccccc5)nn4)cc3C)n2)cc1	MT-4	IIIB	-	Y188L	MTT	>8.55 µM
c1cc(CN2CCCNCCNCCCNCC2)ccc1CN1CCCNCCNCCCNCC1	PBMC	NL4-3 X4	-	-	antigen	0.003 µg/mL
Nc1nc(=O)n([C@@H]2CS[C@H](CO)O2)cc1F	MT-2	Clinical isolate	-	M41L/D67N/K70R/Y181C/G190A/L210W/T215Y/K219E	recombinant virus assay	0.8256 µM
CCN(c1nc(F)ccc1NC(C)(C)C)C1CCN(C(=O)c2cc3cc(NC(=O)N4CCN(C)CC4)ccc3[nH]2)CC1	MT-2	IIIB	-	-	p24 / ELISA	0.0261 µM
CC[C@@H](C)[C@H](C(=O)O)N1C[C@H](CN2CCC(c3cc(Cc4cccc5ccccc45)nn3CC)CC2)[C@@H](c2cccc(F)c2)C1	HeLa	BaL	50% human serum	-	β-galactosidase	<0.033 µM
Cc1ccnc2c1NC(=O)c1cccnc1N2C1CC1	MT-4	-	-	RT-D67N K70R T215Y K219Q	-	<0.2 µM
Cc1ccnc2c1NC(=O)c1cccnc1N2C1CC1	CEM + CEM-SS	NL4-3	-	RT-Y181C	cytopathic effect / XTT	1.3 µM
Cc1cc(C#Cc2cccc(N)c2)cc(C)c1Oc1ccnc(NC2CCN(c3cccc(C(N)=O)c3)CC2)n1	MT-4	IIIB	-	E138K	MTT	0.146 µM
C#Cc1ccc(Nc2nccc(Oc3c(C)cc(-c4cn(CCc5ccccc5)nn4)cc3C)n2)cc1	MT-4	RES056	-	-	MTT	>5.66 µM
Cc1ccnc2c1NC(=O)c1cccnc1N2C1CC1	CEM	IIIB	-	RT-Y181C	cytopathic effect	6.8 µg/mL
Cc1cn([C@H]2C[C@H](N=[N+]=[N-])[C@@H](CO)O2)c(=O)[nH]c1=O	Macrophage	BaL	-	-	p24 / RT activity	0.015 µM
CC[C@H](C)[C@H](C(=O)O)N1C[C@H](CN2CCC(c3cc(Cc4cccc(C#N)c4)nn3CC)CC2)[C@@H](c2cccc(F)c2)C1	HeLa	BaL	50% human serum	-	β-galactosidase	<0.011 µM
Cc1cc(C)c(Nc2ccnc(Nc3ccc(C#N)cc3)n2)c(C)c1	PBMC	35764-2	-	-	absorbance	0.0016 µM
Cc1cc(C#Cc2cccnc2)cc(C)c1Oc1ccnc(Nc2ccc(C#N)cc2)n1	MT-4	IIIB	-	Y181C	MTT	0.065 µM
Cc1cn([C@H]2C[C@H](F)[C@@H](CO)O2)c(=O)[nH]c1=O	PBMC	689	-	-	ELISA	0.014 µM
CCOP(=O)(COc1ccc(C[C@H](NC(=O)O[C@H]2CO[C@H]3OCC[C@H]32)[C@H](O)CN(CC(C)C)S(=O)(=O)c2ccc(OC)cc2)cc1)OCC	MT-2	IIIB	-	8374-P47 GS-8374-resistant	ATP	0.0488 µM
Cc1cc(C#Cc2ccccn2)cc(C)c1Oc1ccnc(Nc2ccc(C#N)cc2)n1	MT-4	IIIB	-	F227L + V106A	MTT	>2.068 µM
C[C@H](Cn1cnc2c(N)ncnc21)OCP(=O)(O)O	HeLa	Recombinant	-	RT-M41L A62V S68N G112S V118I M184V	luciferase	0.22 µM

Repeating the final 5 entries:

structure,cell line,strain or isolate,setting,mutations,method,value
Cc1cc(C#Cc2cccnc2)cc(C)c1Oc1ccnc(Nc2ccc(C#N)cc2)n1,MT-4,IIIB,-,Y181C,MTT,0.065 µM
Cc1cn([C@H]2C[C@H](F)[C@@H](CO)O2)c(=O)[nH]c1=O,PBMC,689,-,-,ELISA,0.014 µM
CCOP(=O)(COc1ccc(C[C@H](NC(=O)O[C@H]2CO[C@H]3OCC[C@H]32)[C@H](O)CN(CC(C)C)S(=O)(=O)c2ccc(OC)cc2)cc1)OCC,MT-2,IIIB,-,8374-P47 GS-8374-resistant,ATP,0.0488 µM
Cc1cc(C#Cc2ccccn2)cc(C)c1Oc1ccnc(Nc2ccc(C#N)cc2)n1,MT-4,IIIB,-,F227L + V106A,MTT,>2.068 µM
C[C@H](Cn1cnc2c(N)ncnc21)OCP(=O)(O)O,HeLa,Recombinant,-,RT-M41L A62V S68N G112S V118I M184V,luciferase,0.22 µM